Pooled drug test results. Numbers come from NIAID ChemDB, via PubChem.

Common to all: target-level tests

Fold resistance: result on the changed form divided by that on wild type. ICn is the concentration giving n% inhibition. a–b is a range or a potency band. Inhibition is in % at the dose shown (toxicity tests: loss of growth or viability). Rows are shuffled and stem from different studies.

{"compound": "O=C(O)C(F)P(=O)(O)O", "species": "Epstein-Barr virus", "protein": "DNA polymerase", "read-out": "IC50", "value": "14 µM"}
{"compound": "Cc1cc(SC2=C(O)C[C@@](CCc3ccc(O)cc3)(C(C)C)OC2=O)c(C(C)(C)C)cc1CO", "protein": "Cytochrome P450 2D6", "read-out": "inhibition", "dose": "10 µM", "value": "9%"}
{"compound": "N#Cc1ccc(C(=O)Nc2nnc(NCCC(c3ccccc3)c3ccccc3)s2)cc1", "species": "Human cytomegalovirus", "protein": "Polymerase", "read-out": "IC50", "value": "<25 µM"}
{"compound": "O=C(O)c1cc(C2CC2)c2nc(N3CCNCC3)c(F)cn2c1=O", "species": "Staphylococcus aureus", "strain": "NCTC10649", "protein": "Gyrase", "read-out": "IC50", "value": "2 µg/mL"}
{"compound": "CC[C@H]1C(=O)Nc2ccc(F)cc2N1C(=O)OC(C)C", "species": "HIV", "mutations": "RT-N137H", "protein": "Reverse transcriptase", "method": "nucleotide incorporation / radiometric", "read-out": "IC50", "value": "0.011 µM"}
{"compound": "CC(CCC=C1CC1)C1CCC2C3=C(CCC21C)C1(C)CCC(O)CC1CC3", "species": "Candida albicans", "protein": "C24-methyltransferase", "read-out": "Ki", "value": "3 µM"}
{"compound": "Cc1cn([C@H]2C=C[C@@H](COP(=O)(O)OP(=O)(O)OP(=O)(O)O)O2)c(=O)[nH]c1=O", "species": "HIV", "mutations": "RT-N137Q", "protein": "Reverse transcriptase", "method": "nucleotide incorporation / radiometric", "read-out": "fold resistance", "value": "1.26"}
{"compound": "OB(O)C1CCCN1", "species": "Cryptosporidium parvum", "protein": "Aminopeptidase", "read-out": "inhibition", "dose": "0.001 µM", "value": "36%"}
{"compound": "CC(COCc1ccccc1)N(C(=O)c1ccc(Cl)cc1Cl)c1cc(-c2ccccc2)sc1C(=O)O", "species": "Hepatitis C virus", "protein": "NS3 ATPase", "read-out": "IC50", "value": "<5 µM"}
{"compound": "CC(C)[C@H](NC(=O)c1ccc2ccccc2n1)C(=O)N[C@@H](Cc1ccccc1)[C@H](O)CN1CC[C@@H](SCc2cccnc2)C[C@H]1C(=O)NC(C)(C)C", "species": "HIV", "mutations": "PR-L23I V32I M46I I47V I54M A71V I84V", "protein": "Protease", "method": "fluorescence", "read-out": "Ki", "value": "0.0103 µM"}
{"compound": "CCC(CC)Nc1cc(C(=O)O)ccc1N1C(=O)CCC1(CO)CCN", "species": "Influenza B virus", "strain": "B/LEE", "protein": "Neuraminidase", "read-out": "IC50", "value": ">1000 µM"}
{"compound": "COCON1C(=O)[C@H]([C@H](OS(C)(=O)=O)C(C)C)N(Cc2ccc(OC)cc2)[C@@H](CC(C)C)C1=O", "species": "Influenza A virus", "protein": "Transcriptase", "read-out": "IC50", "value": ">200 µM"}
{"compound": "N#CCCn1c2ccc(O)cc2c2c3c(c4c5cc(O)ccc5[nH]c4c21)C(=O)NC3", "protein": "Tyrosine kinase", "read-out": "IC50", "value": ">10 µM"}
{"compound": "Cc1ccc(C(=O)Nc2nnc(NCC3CCCCC3)s2)cc1", "species": "Human cytomegalovirus", "protein": "Polymerase", "read-out": "IC50", "value": ">25 µM"}
{"compound": "Cn1c2ccccc2c2c3c(c4c5ccccc5n(CC(F)F)c4c21)CNC3=O", "protein": "cGMP-dependent kinase", "read-out": "IC50", "value": "0.71 µM"}
{"compound": "COc1ccc(OC)c(Cc2sc3nc(N)nc(N)c3c2C)c1", "species": "Cryptosporidium parvum", "protein": "Dihydrofolate reductase", "read-out": "IC50", "value": ">10 µM"}
{"compound": "COCON1C(=O)/C(=C/c2cccc(F)c2)N(Cc2ccc(OC)cc2)[C@@H](CC(C)C)C1=O", "species": "Influenza A virus", "protein": "Transcriptase", "read-out": "IC50", "value": ">200 µM"}
{"compound": "COc1cc(CNc2ccc3nc(N)nc(N)c3c2Cl)cc(OC)c1OC", "species": "Cryptosporidium parvum", "protein": "Dihydrofolate reductase", "read-out": "IC50", "value": "3.75 µM"}
{"compound": "N[C@@H]1CN(c2c(F)cc3c(=O)c(C(=O)O)cn([C@@H]4C[C@@H]4F)c3c2Cl)CC12CC2", "species": "Mycobacterium tuberculosis", "protein": "Gyrase", "read-out": "IC50", "value": "1.67 µg/mL"}
{"compound": "COc1c(N2CCC(N)C2)c(F)cn2c(=O)c(C(=O)O)cc(C3CC3)c12", "species": "Staphylococcus aureus", "strain": "NCTC10649", "protein": "Gyrase", "read-out": "IC50", "value": "0.3 µg/mL"}
{"compound": "CC(CCC1[NH2+]C1(C)C)C1CC[C@@]2(C)C3=C(CCC12C)C1(C)CCC(O)C(C)(C)C1CC3", "species": "Candida albicans", "protein": "C24-methyltransferase", "read-out": "Ki", "value": "0.011 µM"}
{"compound": "CN1Cc2c(c3c4ccccc4n(C)c3c3c2c2ccccc2n3CCC#N)C1=O", "protein": "cGMP-dependent kinase", "read-out": "IC50", "value": ">30 µM"}
{"compound": "O=C(O)c1cc(C2CC2)c2cc(N3CCNCC3)c(F)cn2c1=O", "species": "Staphylococcus aureus", "strain": "NCTC10649", "protein": "Gyrase", "read-out": "IC50", "value": "0.15 µg/mL"}
{"compound": "CO[P@](=O)(c1cc(C)cc(/C=C/C#N)c1)c1c(C(N)=O)[nH]c2ccc(Cl)c(F)c12", "species": "HIV", "mutations": "V108I", "protein": "Reverse transcriptase", "read-out": "IC50", "value": "1.2 µM"}
{"compound": "COc1cccc(C=C2SC(=O)N(CC(=O)N3CCN(c4ccccc4)CC3)C2=O)c1", "species": "Plasmodium falciparum", "protein": "Falcipain-2", "method": "fluorescence", "read-out": "IC50", "value": ">50 µM"}
{"compound": "COCON1C(=O)[C@H]([C@H](OS(C)(=O)=O)c2ccc(F)cc2)N(Cc2ccc(OC)cc2)[C@@H](Cc2ccccc2)C1=O", "species": "Influenza A virus", "protein": "Transcriptase", "read-out": "IC50", "value": ">200 µM"}
{"compound": "CCC(CC)Nc1cc(C(=O)O)ccc1N1C(=O)CCC1(CO)CO", "species": "Influenza A virus", "strain": "Subtype N2", "protein": "Neuraminidase", "read-out": "IC50", "value": "0.49 µM"}
{"compound": "O=C(/C=C/c1ccccc1)Nc1nnc(NCCN2CCCC2)s1", "species": "Human cytomegalovirus", "protein": "Polymerase", "read-out": "IC50", "value": ">25 µM"}
{"compound": "NC(=O)c1ncn([C@@H]2O[C@H](CO)[C@@H](O)[C@H]2O)n1", "species": "Simian rotavirus", "protein": "RNA polymerase", "read-out": "inhibition", "dose": "500 µM", "value": "9%"}
{"compound": "NS(=O)(=O)c1ccc(CNc2nnc(NC(=O)/C=C/c3ccccc3Cl)s2)cc1", "species": "Human cytomegalovirus", "protein": "Polymerase", "read-out": "IC50", "value": "<25 µM"}
{"compound": "COc1ccc(N2CCN(C(=O)CN3C(=O)SC(=Cc4c(OC)cc(OC)cc4OC)C3=O)CC2)cc1", "species": "Plasmodium falciparum", "protein": "Falcipain-2", "method": "fluorescence", "read-out": "IC50", "value": ">50 µM"}
{"compound": "CCCCCCCC/C=C/CCCCCCCC(=O)Nc1nnc(NCCNC(C)=O)s1", "species": "Human cytomegalovirus", "protein": "Polymerase", "read-out": "inhibition", "dose": "25 µM", "value": "69.2%"}
{"compound": "O=P(O)(O)C(F)(Br)P(=O)(O)O", "species": "Epstein-Barr virus", "protein": "DNA polymerase", "read-out": "IC50", "value": ">100 µM"}
{"compound": "Cc1c(Sc2ccccc2)n(COCCO)c(=O)[nH]c1=O", "species": "HIV-1", "mutations": "RT-H221Y", "protein": "Reverse transcriptase", "read-out": "IC50", "value": "~2 µM"}
{"compound": "O=C(Nc1nnc(NCCCCc2ccccc2)s1)c1ccc([N+](=O)[O-])o1", "species": "Human cytomegalovirus", "protein": "Polymerase", "read-out": "IC50", "value": "<25 µM"}
{"compound": "CC(C[NH3+])N(C(=O)c1ccc(Cl)cc1Cl)c1cc(-c2ccccc2)sc1C(=O)O", "species": "Hepatitis C virus", "protein": "NS3 ATPase", "read-out": "IC50", "value": "<5 µM"}
{"compound": "NS(=O)(=O)c1ccc(CCNc2nnc(NC(=O)/C=C/c3ccccc3)s2)cc1", "species": "Human cytomegalovirus", "protein": "Polymerase", "read-out": "IC50", "value": "<25 µM"}
{"compound": "COc1cc(CCc2csc3nc(N)nc(N)c23)c(Br)c(OC)c1OC", "species": "Cryptosporidium parvum", "protein": "Dihydrofolate reductase", "read-out": "IC50", "value": ">10 µM"}
{"compound": "COc1cc(OC)c(C=C2SC(=O)N(CC(=O)N3CCNCC3)C2=O)c(OC)c1", "species": "Plasmodium falciparum", "protein": "Falcipain-2", "method": "fluorescence", "read-out": "IC50", "value": ">50 µM"}
{"compound": "NC1CCN(c2nc3c(cc2F)c(=O)c(C(=O)O)cn3-c2ccc(F)cc2F)C1", "species": "Staphylococcus aureus", "strain": "NCTC10649", "protein": "Gyrase", "read-out": "IC50", "value": "0.24 µg/mL"}
{"compound": "O=C(Nc1cc(-c2ccccc2)sc1C(=O)O)c1ccc(F)cc1F", "species": "Hepatitis C virus", "protein": "NS3 ATPase", "read-out": "IC50", "value": ">20 µM"}
{"compound": "C=C(CCC(C)C1CCC2C3=C(CCC21C)C1(C)CCC(O)CC1CC3)C(C)C", "species": "Candida albicans", "protein": "C24-methyltransferase", "read-out": "Ki", "value": "72 µM"}
{"compound": "COc1cc(OC)c(C=C2SC(=O)N(CC(=O)N3CCN(c4ccccc4Cl)CC3)C2=O)c(OC)c1", "species": "Plasmodium falciparum", "protein": "Falcipain-2", "method": "fluorescence", "read-out": "IC50", "value": "12.64 µM"}
{"compound": "O=S(=O)(F)Cc1ccccc1", "species": "Cryptosporidium parvum", "protein": "Aminopeptidase", "read-out": "inhibition", "dose": "1000 µM", "value": "18%"}
{"compound": "CN(Cc1ccc2nc(N)nc(N)c2n1)c1ccccc1Cl", "species": "Cryptosporidium parvum", "protein": "Dihydrofolate reductase", "read-out": "IC50", "value": "0.91 µM"}
{"compound": "COCON1C(=O)[C@H]([C@H](O)c2ccc(OC)cc2)N(Cc2ccc(OC)cc2)[C@@H](Cc2ccccc2)C1=O", "species": "Influenza A virus", "protein": "Transcriptase", "read-out": "IC50", "value": ">200 µM"}
{"compound": "CC(C)=CCOc1cc(NC(=S)c2ccoc2C)ccc1Cl", "species": "HIV", "mutations": "RT-N137Y", "protein": "Reverse transcriptase", "method": "nucleotide incorporation / radiometric", "read-out": "fold resistance", "value": "0.18"}
{"compound": "O=C(O)C(Br)(Br)P(=O)(O)O", "species": "Epstein-Barr virus", "protein": "DNA polymerase", "read-out": "inhibition", "dose": "100 µM", "value": "34%"}
{"compound": "NC(=O)c1ncn([C@@H]2O[C@H](COP(=O)(O)O)[C@@H](O)[C@H]2O)n1", "species": "Simian rotavirus", "protein": "RNA polymerase", "read-out": "inhibition", "dose": "500 µM", "value": "0%"}
{"compound": "COc1ccccc1C(=O)Nc1nnc(NCc2ccc(Cl)c(Cl)c2)s1", "species": "Human cytomegalovirus", "protein": "Polymerase", "read-out": "IC50", "value": ">25 µM"}
{"compound": "CC(C)CC(N)B(O)O", "species": "Cryptosporidium parvum", "protein": "Aminopeptidase", "read-out": "IC50", "value": "<0.001 µM"}
{"compound": "CC(=O)Oc1cc(C)ccc1C(=O)N(c1cc(-c2ccccc2)sc1C(=O)O)C(C)C", "species": "Hepatitis C virus", "protein": "NS3 ATPase", "read-out": "IC50", "value": "5–20 µM"}
{"compound": "COc1ccc(OC)c(NCc2ccc3nc(N)nc(N)c3c2Cl)c1", "species": "Cryptosporidium parvum", "protein": "Dihydrofolate reductase", "read-out": "IC50", "value": "0.2 µM"}
{"compound": "COc1cc(OC)c(C=C2SC(=O)N(Cc3ccc(C)cc3)C2=O)c(OC)c1", "species": "Plasmodium falciparum", "protein": "Falcipain-2", "method": "fluorescence", "read-out": "IC50", "value": "43.35 µM"}
{"compound": "Cc1cccc(C)c1OCC(=O)N[C@@H](Cc1ccccc1)[C@H](O)CN1CC[C@@H](Sc2ccncc2)C[C@H]1C(=O)NC(C)(C)C", "species": "HIV", "mutations": "PR-V32I M46I A71V I84A", "protein": "Protease", "method": "fluorescence", "read-out": "fold resistance", "value": "4500"}
{"compound": "CC(Cl)(C(=O)O)P(=O)(O)O", "species": "Epstein-Barr virus", "protein": "DNA polymerase", "read-out": "inhibition", "dose": "100 µM", "value": "44%"}

4 of the rows above, restated:

{"compound": "COc1ccc(N2CCN(C(=O)CN3C(=O)SC(=Cc4c(OC)cc(OC)cc4OC)C3=O)CC2)cc1", "species": "Plasmodium falciparum", "protein": "Falcipain-2", "method": "fluorescence", "read-out": "IC50", "value": ">50 µM"}
{"compound": "O=C(Nc1nnc(NCCCCc2ccccc2)s1)c1ccc([N+](=O)[O-])o1", "species": "Human cytomegalovirus", "protein": "Polymerase", "read-out": "IC50", "value": "<25 µM"}
{"compound": "OB(O)C1CCCN1", "species": "Cryptosporidium parvum", "protein": "Aminopeptidase", "read-out": "inhibition", "dose": "0.001 µM", "value": "36%"}
{"compound": "COc1ccc(OC)c(NCc2ccc3nc(N)nc(N)c3c2Cl)c1", "species": "Cryptosporidium parvum", "protein": "Dihydrofolate reductase", "read-out": "IC50", "value": "0.2 µM"}